Anti-infective test results gathered from many reports (values: NIAID ChemDB through PubChem).

All rows: growth or infection tests; species: HIV-1; read-out: EC50

Blank or dashed fields: not listed here. ECn: concentration that inhibits the pathogen or its effect by n%. Lines come from different laboratories, so protocols vary.

SMILES | read by | mutations | conditions | strain or isolate | cells | value
CCOC(=O)c1cc(NC(=O)C2=C(CC)OCCS2)ccc1Cl | syncytia | RT-V106A | - | Nevirapine-resistant (RT V106A) | CEM | 7 µg/mL
C/C=C/COc1cc(NC(=S)c2ccoc2C)ccc1Cl | syncytia | RT-Y181C | - | - | CEM | 0.58 µM
CC(C)C1=C2[C@H]3CC[C@@H]4[C@@]5(C)CC[C@H](OC(=O)[C@H]6C[C@@H](C(=O)O)C6(C)C)C(C)(C)[C@@H]5CC[C@@]4(C)[C@]3(C)CC[C@@]2([C@@H](O)CNCc2ccc(CN3CCC(O)CC3)cc2)CC1=O | p24 / ELISA | - | - | 92HT599 | MT-2 | <1 µM
Cc1occc1C(=S)Nc1ccc(Cl)c(OCC(C)(C)C)c1 | syncytia | RT-V106A | - | - | CEM | 6 µM
CC(C)C1=C2[C@H]3CC[C@@H]4[C@@]5(C)CC[C@H](OC(=O)[C@H]6C[C@@H](C(=O)O)C6(C)C)C(C)(C)[C@@H]5CC[C@@]4(C)[C@]3(C)CC[C@@]2(CC(=O)NCc2ccncc2)CC1=O | p24 / ELISA | - | - | 92HT599 | MT-2 | <1 µM
CC1=C(C(=O)Nc2ccc(Cl)c(C(=O)OC3CCCCC3)c2)SCCO1 | syncytia | RT-L100I | - | TIBO-resistant (RT L100I) | CEM | 0.85 µg/mL
Cc1occc1C(=S)Nc1ccc(Cl)c(/C=N/OCc2ccccc2)c1 | syncytia | RT-V106A | - | - | CEM | 1.6 µM
CC1=C(C(=O)Nc2cccc(C(=O)OC(C)C)c2)SCCO1 | syncytia | RT-V106A | - | Nevirapine-resistant (RT V106A) | CEM | >10 µg/mL
CC(C)C1=C2[C@H]3CC[C@@H]4[C@@]5(C)CC[C@H](OC(=O)[C@H]6C[C@@H](C(=O)O)C6(C)C)C(C)(C)[C@@H]5CC[C@@]4(C)[C@]3(C)CC[C@@]2([C@@H](O)CNCC2(N)CNC2)CC1=O | p24 / ELISA | - | - | 92HT599 | MT-2 | <1 µM
CCCCOC(=O)c1cc(NC(=O)C2=C(C)OCCS2)ccc1Cl | syncytia | RT-V106A | - | Nevirapine-resistant (RT V106A) | CEM | 6 µg/mL
CC(C)C1=C2[C@H]3CC[C@@H]4[C@@]5(C)CC[C@H](OC(=O)[C@H]6C[C@@H](C(=O)O)C6(C)C)C(C)(C)[C@@H]5CC[C@@]4(C)[C@]3(C)CC[C@@]2(CCNC(=O)c2ccc(Cl)cc2)CC1=O | p24 / ELISA | - | - | 92HT599 | MT-2 | <1 µM
Cc1occc1C(=S)Nc1ccc(Cl)c(/C=N/OC(C)(C)C)c1 | syncytia | - | 0% human serum | IIIB | CEM | 0.057 µM
O=C(Cn1cnc2c([N+](=O)[O-])cccc21)Nc1ccccn1 | luciferase | - | - | ADA5 | TZM-bl | 9.59 µM
Cc1ccoc1C(=S)Nc1ccc(Cl)c(C(=O)OC(C)C)c1 | syncytia | - | - | IIIB | CEM | 0.31 µM
CC1=C(C(=O)Nc2cc(C(=O)OC(C)C)c(F)cc2F)SCCO1 | syncytia | - | - | IIIB | CEM | 0.85 µg/mL
Cc1ccsc1C(=S)Nc1ccc(Cl)c(C(=O)OC(C)C)c1 | syncytia | RT-Y181C | - | - | CEM | 1.6 µM
CCCC1=C(C(=O)Nc2ccc(Cl)c(C(=O)OC)c2)SCCO1 | syncytia | RT-L100I | - | TIBO-resistant (RT L100I) | CEM | 6.5 µg/mL
O=C(CCC(=O)n1cnc2ccccc21)n1cnc2ccccc21 | luciferase | - | - | ADA5 | TZM-bl | 40 µM
CCCOC(=O)c1cc(NC(=O)C2=C(C)OCCS2)ccc1Cl | syncytia | RT-L100I | - | TIBO-resistant (RT L100I) | CEM | 1.9 µg/mL
CC(C)C1=C2[C@H]3CC[C@@H]4[C@@]5(C)CC[C@H](OC(=O)[C@H]6C[C@@H](C(=O)O)C6(C)C)C(C)(C)[C@@H]5CC[C@@]4(C)[C@]3(C)CC[C@@]2([C@@H](O)CNC(=O)c2ccc(O[C@@H]3CCOC3)cc2)CC1=O | p24 / ELISA | - | - | 92HT599 | MT-2 | <1 µM
CCC1=C(C(=O)Nc2ccc(Cl)c(C(=O)OC(C)C)c2)SCCO1 | syncytia | RT-Y181C | - | PYR-resistant (RT Y181C) | CEM | 5 µg/mL
Cc1cn(CC(=O)Nc2ccc([N+](=O)[O-])cn2)c(=O)[nH]c1=O | luciferase | - | - | ADA5 | TZM-bl | 30.65 µM
C=CCOc1cc(NC(=S)c2sccc2C)ccc1OC | syncytia | RT-L100I | - | - | CEM | 15 µM
COC(=O)Oc1ccc(NC(=O)C2=C(C)OCCS2)cc1C(=O)OC(C)C | syncytia | RT-Y181C | - | PYR-resistant (RT Y181C) | CEM | 9 µg/mL
CC(C)=CCOc1cc(NC(=S)c2ccoc2C)ccc1Cl | syncytia | RT-K103N | - | - | CEM | 0.069 µM
O=C(CCC(=O)Nc1ccc([N+](=O)[O-])cn1)Nc1ccc([N+](=O)[O-])cn1 | luciferase | - | - | UG070 | TZM-bl | 110.5 µM
CC(C)C1=C2[C@H]3CC[C@@H]4[C@@]5(C)CC[C@H](OC(=O)[C@H]6C[C@@H](C(=O)O)C6(C)C)C(C)(C)[C@@H]5CC[C@@]4(C)[C@]3(C)CC[C@@]2([C@@H](O)CNCc2ccc(N3CCS(=O)(=O)CC3)nc2)CC1=O | p24 / ELISA | - | - | 92HT599 | MT-2 | <1 µM
CC1=C(C(=S)Nc2ccc(Cl)c(C=NOC(C)(C)C)c2)CCCO1 | syncytia | - | - | IIIB | CEM | 0.0035 µM

A second listing of 2 rows from above:

SMILES,read by,mutations,conditions,strain or isolate,cells,value
CC1=C(C(=S)Nc2ccc(Cl)c(C=NOC(C)(C)C)c2)CCCO1,syncytia,-,-,IIIB,CEM,0.0035 µM
O=C(CCC(=O)Nc1ccc([N+](=O)[O-])cn1)Nc1ccc([N+](=O)[O-])cn1,luciferase,-,-,UG070,TZM-bl,110.5 µM